Here are results for 65 molecules from PubChem BioAssay AID588497 (NMMLSC, 2011).

What is called inhibition is the change of the read-out against control, counted positive when it falls.

Only a part is listed here, and it is no random draw. Records with an inconclusive call do not appear. Calls of active or inactive are those of the source. Rule as the data show it: active = inhibition above about 35% (passing the limit was not always enough); inconclusive = no clear call, values can overlap the other calls.

The subject of this assay is Botulinum neurotoxin type F light chain protease (Clostridium botulinum). The assay is described as follows: BoNT/F light chain protease inhibitors, primary screen, biochemical, flow cytometry, MLPCN library (AID 588497). Also: plate controls were buffer without enzyme for full effect and enzyme alone for no effect. The following applies: Multiplex microsphere protease cleavage assay, at 10 µM, hits give high values. (A flow cytometer gives signals particle by particle.)
Regarding `O=[N+]([O-])C1C(O)C(O)C([N+](=O)[O-])C(O)C1O` (stereo not given), the inhibition is inactive: -6.3%.
As to `Oc1ccccc1CNc1ccccn1`, the inhibition was inactive: -3.4%.
As for `O=C(NC(Sc1ccncn1)C(Cl)(Cl)Cl)c1ccccc1` (stereo not given), the figure is inactive: 0.7%; as for `CC(C)CC(=O)NC(Sc1ccc(Cl)cc1)C(Cl)(Cl)Cl` (stereo not given), inactive: -6.7%; as for `CN1CCCC(OC(=O)C(c2ccccc2)c2ccccc2)C1` (stereo not given), inactive: 5.6%.
With `Clc1ccc(Cl)c(NC2=NCC(CBr)S2)c1` (stereo not given), the inhibition was inactive: -10.4%.
As for `COc1ccccc1OP(=O)(Nc1ccc(C)cn1)Oc1ccccc1OC`, the figure is inactive: -3.1%.
As for `CN(C(=O)Cc1ccc(Cl)c(Cl)c1)[C@H]1CCCC[C@H]1N1CCCC1`, the figure is inactive: -9.4%; as for `Cc1ccc(N/C(=N/P(=O)(N2CCOCC2)N2CCOCC2)N2CCOCC2)cc1`, inactive: -4.1%; as for `NC(=O)c1cc([N+](=O)[O-])cc([N+](=O)[O-])c1N`, inactive: 6.4%.
For the molecule `Nc1cccc2ccc([As](=O)(O)O)cc12`, the inhibition is active: 36.7%.
Turning to `CCN(N=Nc1nonc1N)c1nonc1N`, the inhibition was inactive: 3.8%.
For `Cc1cc(SC(NC(=O)c2ccc(F)cc2)C(Cl)(Cl)Cl)ncn1` (stereo not given), the inhibition was inactive: -8%.
As for `CCOP(=O)(Nc1ccccc1)OCC`, the figure is inactive: 5.3%.
As for `CN(C(=O)Cc1ccc(Cl)c(Cl)c1)[C@H]1CCCC[C@@H]1N1CCCC1`, the figure is inactive: -8.1%; as for `Cc1ccc(NP(=O)(Oc2ccccc2F)Oc2ccccc2F)nc1`, inactive: -8.8%; as for `O=P(Nc1nc2ccc(Cl)cc2s1)(c1ccccc1)c1ccccc1`, inactive: 0.9%.
As for `CN(C)P(=O)(N(C)C)n1c(Nc2ccccc2)nnc1-c1ccccc1`, the figure is inactive: -5.1%.
As to `CC(=O)Nc1ccc([As](=O)(O)O)cc1`, the inhibition was inactive: 1.8%.
Next, `O=C(O)c1ccccc1[As](=O)(O)O`: inactive: -0.1%.
As for `CCCC1OP(N)(=O)OCC1CC` (stereo not given), the figure is inactive: -3.6%; as for `COC(=O)C1(C)COP(=O)(Nc2ccccc2)OC1` (stereo not given), inactive: 3.1%.
As for `O=[N+]([O-])c1ncn(CCn2ncnc2[N+](=O)[O-])n1`, the figure is inactive: -4.8%; as for `CC(C)(C)C(=O)NC(Sc1ccncn1)C(Cl)(Cl)Cl` (stereo not given), inactive: -5.5%; as for `O=P1(N(CCCl)CCCl)OCCCS1` (stereo not given), inactive: 3.2%.
Regarding `CC1CCN(C(=O)Oc2c(Cl)cc(Cl)c3cccnc23)CC1`, the inhibition was inactive: 0.9%.
On to `c1cc(-c2nn[nH]n2)ccc1-c1nn[nH]n1`, for which the inhibition was inactive: 4.4%.
For `CC(C)c1nc(Nc2ccccc2)n(P(=O)(N(C)C)N(C)C)n1`, the inhibition is inactive: -3.7%.
As for `CC(C)=N/N=C(\N)N[N+](=O)[O-]`, the figure is inactive: -1.2%.
Next, `CN(C)C(=O)OCCc1n(C)cc[n+]1C`: inactive: -6.6%; `CCN(/C(=N/P(=O)(N1CCOCC1)N1CCOCC1)N1CCOCC1)c1ccc(OC)cc1`: inactive: -4.6%.
As for `Nc1ccc([As](=O)(O)c2ccc(N)cc2)cc1`, the figure is inactive: -7.3%; as for `C[N+]1=C2C=CC=CC=C2SC12C([N+](=O)[O-])=CC([N+](=O)[O-])=C[C-]2[N+](=O)[O-]` (stereo not given), inactive: 11.3%.
On to `Cc1ccc(NP(=O)(Oc2ccccc2)Oc2ccccc2)nc1`, for which the inhibition is inactive: -6.4%.
Next, `O=[N+]([O-])c1cc([N+](=O)[O-])c(CCNc2ccccc2)c([N+](=O)[O-])c1`: inactive: -21.2%; `CCc1nc2c(n1)c1c(non1O)c1c2no[n+]1[O-]`: inactive: -0.2%.
Next, `CC(=O)N1C2C3N(C(C)=O)C1C1N(C(C)=O)C(C(N1C(C)=O)N3C(C)=O)N2C(C)=O`: inactive: 5.1%.
Next, `O=[N+]([O-])c1cccc2n[nH]nc12`: inactive: -3.2%; `COc1ccc(C2=NCC(CBr)S2)cc1` (stereo not given): inactive: -16.7%; `c1nnnn1CCn1cnnn1`: inactive: 21.8%.
For `O=P(Nc1nccs1)(c1ccccc1)c1ccccc1`, the inhibition was inactive: -1.2%.
Turning to `CC(C)C(=O)NC(Sc1ccccc1)C(Cl)(Cl)Cl` (stereo not given), the inhibition is inactive: -3.5%.
As for `O=C(OC1CN2CCC1CC2)c1cccc(Cl)c1` (stereo not given), the figure is inactive: 7.3%; as for `C(Cc1nn[nH]n1)Cc1nn[nH]n1`, inactive: -1.4%.
Next, `Nc1ccc([As](=O)(O)c2ccc([N+](=O)[O-])cc2)cc1`: inactive: -1.1%; `O=[As](O)(c1ccccc1)c1ccc(O)cc1`: inactive: -3%.
As for `CC(=O)NC(SC(=S)N(C)C)C(Cl)(Cl)Cl` (stereo not given), the figure is inactive: 3.9%; as for `O=[N+]([O-])c1ncn(CCn2cnc([N+](=O)[O-])n2)n1`, inactive: 1.5%; as for `O=[N+]([O-])c1ccc(O)c(/C=N/Nc2ccc([N+](=O)[O-])cc2[N+](=O)[O-])c1`, inactive: -3.6%.
Take `O=P(Nc1nc2ccccc2s1)(c1ccccc1)c1ccccc1`: the inhibition was inactive: -12.3%.
As for `C[C@H]1OP(=O)(Oc2ccccc2)[C@H](O)[C@H](O)[C@H]1N=[N+]=[N-]` (stereo not given in full), the inhibition is inactive: 0.6%.
As for `CN(C)C1(CNC(=O)c2ccc(Cl)c(S(N)(=O)=O)c2)CCCCC1`, the figure is inactive: 11.1%.
Next, `O=P(Nc1ccccn1)(c1ccc(Br)cc1)c1ccc(Br)cc1`: inactive: -11.9%.
Turning to `COc1ccc(N)c([N+](=O)[O-])c1[N+](=O)[O-]`, the inhibition was inactive: -3%.
Next, `Nc1ccc(CCCCOc2ccccc2)cc1`: inactive: -10.1%; `CC(NC(=O)COC(=O)C(O)(c1ccccc1)c1ccccc1)c1ccccc1` (stereo not given): inactive: 9%; `O=c1c2cc([N+](=O)[O-])ccc2[nH]c2c([N+](=O)[O-])cc([N+](=O)[O-])cc12`: inactive: -1.5%.
Take `O=C(OC1CN2CCC1CC2)c1ccccc1` (stereo not given): the inhibition was inactive: -15.6%.
Next, `CCC(=O)N1C2C3N(C(=O)CC)C1C1N(C(=O)CC)C(C(N1C(=O)CC)N3C(=O)CC)N2C(=O)CC`: inactive: 1.7%; `COC(=O)c1cc2c(s1)N=C(c1ccccc1)N(C)P2(=O)N1CCOCC1` (stereo not given): inactive: 1.2%.
As for `CC(=O)NC(SC(=S)N(CC(C)C)CC(C)C)C(Cl)(Cl)Cl` (stereo not given), the figure is inactive: -3%; as for `Cc1ccc(OP(=O)(Nc2ccccn2)Oc2ccc(C)cc2)cc1`, inactive: -6%.
On to `O=P1(N(CCCl)CCCl)OCCC2CCCCN21` (stereo not given), for which the inhibition is inactive: -13.6%.
As for `c1ccc(-c2nn[nH]n2)c(-c2nn[nH]n2)c1`, the figure is inactive: -6.9%.
Next, `O=C(NC1CCS(=O)(=O)C1)NP(=S)(Oc1ccccc1)Oc1ccccc1` (stereo not given): inactive: -9%.
